Experimental data as given in the CheMixHub viscosity set.
± gives the uncertainty stated by the source.

Experiments:
[1] = 101.3 kPa
[2] = xn = mol fraction of the nth substance listed; settings: 101.3 kPa

Structure (SMILES) | viscosity ([1]; 293.15 K) [mPa·s] | viscosity ([1]; 298.15 K) [mPa·s] | viscosity ([1]; 303.15 K) [mPa·s] | viscosity ([1]; 308.15 K) [mPa·s] | viscosity ([1]; 313.15 K) [mPa·s] | viscosity ([1]; 318.15 K) [mPa·s] | viscosity ([1]; 323.15 K) [mPa·s] | viscosity ([2]; 293.15 K, x1 = 0.6) [mPa·s] | viscosity ([2]; 298.15 K, x1 = 0.4) [mPa·s] | viscosity ([2]; 298.15 K, x1 = 0.6) [mPa·s] | viscosity ([2]; 303.15 K, x1 = 0.2) [mPa·s] | viscosity ([2]; 303.15 K, x1 = 0.4) [mPa·s] | viscosity ([2]; 303.15 K, x1 = 0.6) [mPa·s] | viscosity ([2]; 308.15 K, x1 = 0.2) [mPa·s] | viscosity ([2]; 308.15 K, x1 = 0.4) [mPa·s] | viscosity ([2]; 313.15 K, x1 = 0.2) [mPa·s]
CCCC[n+]1ccccc1.O=S(=O)(F)[N-]S(=O)(=O)F | 48.8 ± 9.8 | 40 ± 8 | 33.3 ± 6.7 | 28.1 ± 5.6 | 24 ± 4.8 | 20.7 ± 4.1 | 18 ± 3.6 |  |  |  |  |  |  |  |  | 
CCCC[n+]1ccccc1.O=S(=O)(F)[N-]S(=O)(=O)F + CCCC[n+]1ccccc1.F[B-](F)(F)F |  |  |  |  |  |  |  | 76.9 ± 16 | 80.2 ± 16 | 61.2 ± 12 | 85.7 ± 17 | 63.7 ± 13 | 49.6 ± 10 | 67.5 ± 14 | 51.4 ± 10 | 54.2 ± 11
